Measured values from several laboratories, pooled; numbers as filed in NIAID ChemDB.

All rows: tests in culture; species: HIV-1; measure: fold resistance

An empty or dashed field is not shown. Neighbouring rows are from separate reports. Fold resistance has wild type as its base.

structure	read by	cells	mutations	strain	value
CCc1c(Cc2cc(Cl)cc(Cl)c2)n(COC2Cc3ccccc3C2)c(=O)[nH]c1=O	cytopathic effect / MTT	MT-4	RT-K103N Y181C	NNRTI-resistant (RT K103N Y181C) A17	>76.9
O=C1Nc2ccc(Cl)c3c2[C@](C(F)(F)F)(C=C(c2ccccc2)O3)N1	p24	MT-4	RT-K103N	-	5.61
COc1ccc(NC(=S)c2ccsc2C)cc1OCC=C(Cl)Cl	syncytia	CEM	RT-V106A	Nevirapine-resistant isolate (RT V106A)	18
N#Cc1cc(Cl)cc(Oc2c(Br)ccc(CC(=O)Nc3ccc(S(N)(=O)=O)cc3Cl)c2F)c1	-	MT-4	Y181I/M230L	-	9
C=C(Cl)COc1cc(NC(=S)c2ccsc2C)ccc1C#N	syncytia	CEM	RT-Y188H	HEPT-resistant (RT Y188H)	66.7
Cc1cc(C#N)cc(C(=O)c2cc(Cl)ccc2OCC(=O)Nc2ccc(S(N)(=O)=O)cc2C)c1	β-galactosidase	HeLa + HELA CD4+	RT-P225H	HXB2	~1
COc1ccc(C)cc1CS(=O)(=O)c1cccc[n+]1[O-]	syncytia	CEM	RT-E138K	IIIB	8.47
CCOCn1c(Cc2cccc(Cc3c(CC)c(=O)[nH]c(=O)n3COCC)c2)c(CC)c(=O)[nH]c1=O	cytopathic effect / MTT	MT-4	RT-Y181C	NNRTI-resistant	>7.1
Cc1cc2cn[nH]c2cc1NC(=O)COc1ccc(Cl)cc1C(=O)c1cccc(C#N)c1	β-galactosidase	HeLa + HELA CD4+	RT-K103N P225H	HXB2	~1
CCN1c2ncc(CCOc3ccc(S(=O)(=O)Nc4ccc(C(=O)O)cc4)cc3C)cc2C(=O)N(C)c2cccnc21	p24	C8166	RT-K103N Y181C	-	1
CN1CCN(C(=O)c2ccc3c(=O)c4ccccc4[nH]c3c2)CC1	syncytia	CEM	RT-Y181C	PYR-resistant (RT Y181C)	71.4
Cc1cc(C#N)cc(C)c1Oc1nc(Nc2ccc(C#N)cc2)ncc1SCC(N)=O	MTT	MT-4	Y188L	-	7
CCc1c(Cc2cccc(Cc3nc(SC)nc(OC)c3CC)c2)nc(SC)nc1OC	cytopathic effect / MTT	MT-4	RT-Y181C	NNRTI-resistant	>2.4
O=C1Nc2ccc(Cl)cc2[C@@](/C=C/C2CC2)(C(F)(F)F)N1	p24	MT-4	RT-L100I K103N	-	805
CCN1c2ncc(CCOc3ccc(-c4ccc(C(=O)O)cc4)cc3F)cc2C(=O)N(C)c2cccnc21	p24	C8166	RT-K103N Y181C	-	>5
C=CCOCn1c(Cc2cc(Cl)cc(Cl)c2)c(CC)c(=O)[nH]c1=O	cytopathic effect / MTT	MT-4	RT-K103N Y181C	NNRTI-resistant (RT K103N Y181C) A17	100
C[C@@H]1CCO[C@H]2Cn3cc(C(=O)NCc4ccc(F)cc4F)c(=O)c(O)c3C(=O)N12	luciferase / luminescence	TZM-bl	I60M	-	1
Cc1cn([C@H]2C=C[C@@H](CO)O2)c(=O)[nH]c1=O	cytopathic effect / MTT	MT-4	RT-T215Y	HXB2	1.1
CC1=C(C(=O)Nc2ccc(Cl)c(C(=O)OCC3CCC3)c2)SCCO1	syncytia	CEM	RT-E138K	TSAO-resistant (RT E138K)	52.9
Nc1nc2c(ncn2[C@H]2CO[C@@H](CO)O2)c(=O)[nH]1	cytopathic effect / XTT	MT-2	RT-K65R	-	4
CCc1c(Cc2cc(Cl)cc(Cl)c2)n(COC2CCc3ccccc32)c(=O)[nH]c1=O	cytopathic effect / MTT	MT-4	RT-Y181C	NNRTI-resistant (RT Y181C) N119	6
CC(C)=CCOc1cc(NC(=S)c2ccsc2C)ccc1Cl	cytopathic effect / XTT	CEM + CEM-SS	RT-Y181C	NL4-3 (RT Y181C)	5
Cc1occc1C(=O)Nc1ccc(Cl)c(/C=N/N(C)C)c1	syncytia	CEM	RT-V106A	Nevirapine-resistant (RT V106A)	<8.89
Cc1cc(S(N)(=O)=O)ccc1NC(=O)COc1ccc(Cl)cc1C(=O)c1cc(F)cc(C(F)(F)F)c1	β-galactosidase	HeLa + HELA CD4+	RT-Y181C	HXB2	~1
O=C1Nc2ccc(Cl)cc2[C@@](C#CC2CC2)(C(F)(F)F)N1	p24	MT-4	RT-L100I K103N	-	550
Nc1ncnc2c1ncn2[C@@H]1O[C@H](OCP(=O)(O)O)C=C1F	cytopathic effect	MT-2	RT-M184V	-	0.8
Cc1ccc(C)c(C(C)S(=O)(=O)c2c(C)ccc[n+]2[O-])c1	cytopathic effect	CEM	RT-Y181C	-	≥200
CCc1c(Cc2cc(Cl)cc(Cl)c2)n(COC/C=C/c2ccccc2)c(=O)[nH]c1=O	cytopathic effect / MTT	MT-4	RT-K103N Y181C	NNRTI-resistant (RT K103N Y181C) A17	>250
Cc1cc(C#N)cc(C)c1Oc1nc(Nc2ccc(C#N)cc2)ncc1SCC(=O)NCCN1CCN(C(=O)OC(C)(C)C)CC1	MTT	MT-4	RES056	-	3.7
Cc1ccc(C)c(CS(=O)c2ccc(Cl)c[n+]2[O-])c1	cytopathic effect	CEM	RT-K103N	-	4.5
CC1=C(C(=O)Nc2ccc(F)c(C(=O)OC(C)C)c2)SCCO1	syncytia	CEM	RT-V106A	Nevirapine-resistant (RT V106A)	>28.6
CCN1c2ncc(CCOc3ccc(C(=O)Nc4cccn(CC(=O)O)c4=O)cc3C)cc2C(=O)N(C)c2cccnc21	p24	C8166	RT-K103N Y181C	-	1
Cc1cc(C)c(CS(=O)c2cccc[n+]2[O-])c(C)c1	syncytia	CEM	RT-Y181C	IIIB	4.14
Cc1ccc(C)c(CS(=O)(=O)c2cccc[n+]2[O-])c1	cytopathic effect	CEM	RT-K103N	-	2.07
CC(C)c1c(OC#CC2CC2)c2cc(Cl)ccc2[nH]c1=O	β-galactosidase	HeLa + HeLa-MAGI	RT-K103N Y181C	NNRTI-resistant (RT K103N Y181C)	38.75
CCN1c2ncc(CCOc3ccc(C(=O)Nc4ccc(C(=O)O)cc4)cc3C)cc2C(=O)N(C)c2cccnc21	p24	C8166	RT-K103N Y181C	-	>1
CC(C)=CCOc1cc(NC(=S)c2ccsc2C)ccc1Cl	syncytia	CEM	RT-Y188L	IIIB	20
CCc1c(Cc2cccc(Cc3nc(SC(C)C)[nH]c(=O)c3CC)c2)nc(SC(C)C)[nH]c1=O	cytopathic effect / MTT	MT-4	RT-K103N Y181C	RT-K103N+Y181C NNRTI-resistant	>2.5
CC1=C(C(=O)Nc2cc(C(=O)OC(C)C)c(C)cc2F)SCCO1	syncytia	CEM	RT-L100I	TIBO-resistant (RT L100I)	>4.35
CCOCn1c(Cc2cc(C)cc(C)c2)c(CC)c(=O)[nH]c1=O	syncytia	CEM	RT-E138K	IIIB	9
Cc1cc(C#N)cc(C)c1Oc1nc(Nc2ccc(C#N)cc2)ncc1SCC(=O)NCC1CCCO1	MTT	MT-4	L100I	-	5.9
Nc1nc(=O)n([C@H]2C=C[C@@H](CO)O2)cc1F	p24	PBMC	RT-T69SSS L210W T215Y	XM-T69SSS	3.9
CC(C)=CCOc1cc(NC(=S)c2ccoc2C)ccc1Cl	p24	CEM + CEM-SS	RT-V179D	NL4-3	1.33
Cc1ccc(C)c(CS(=O)c2ccc(Cl)c[n+]2[O-])c1	syncytia	CEM	RT-K103N	IIIB	4.5
COCCNC(=O)CSc1cnc(Nc2ccc(C#N)cc2)nc1Oc1c(C)cc(C#N)cc1C	MTT	MT-4	RES056	-	91.4
COc1ccc(NC(=O)c2ccoc2C)cc1OCC=C(Cl)Cl	syncytia	CEM	RT-Y188H	HEPT-resistant (RT Y188H)	40
Cc1cc(C#N)cc(C)c1Oc1nc(Nc2ccc(C#N)cc2)ncc1SCC(=O)NCc1ccc(O)cc1	MTT	MT-4	E138K	-	3.5
CCCCOC(=O)c1cc(NC(=O)C2=C(C)OCCS2)ccc1Cl	syncytia	CEM	RT-Y181C	PYR-resistant (RT Y181C)	17.5
Cc1cc(S(N)(=O)=O)ccc1NC(=O)COc1ccc(Cl)cc1C(=O)c1cccc(C#N)n1	β-galactosidase	HeLa + HELA CD4+	RT-Y181C	HXB2	~1
Cc1cn([C@H]2C=C[C@@H](CO)O2)c(=O)[nH]c1=O	p24	MT-4	RT-K65R L74V M184V Y115F	XM-ABC-resistant	2.7
C=C(C)[C@@H]1CC[C@]2(C(=O)NCCCCCCCC(=O)N[C@@H](CC(C)C)[C@@H](O)CC(=O)O)CC[C@]3(C)[C@H](CC[C@@H]4[C@@]5(C)CC[C@H](O)C(C)(C)[C@@H]5CC[C@]43C)[C@@H]12	syncytia	HeLa P4 + HeLa	GP41-L91H	LAI	>200
O=C1Nc2ccc(Cl)c(O)c2[C@@](C#CC2CC2)(C(F)(F)F)N1	p24	MT-4	RT-L100I K103N	-	840
C=CCNC(=O)CSc1cnc(Nc2ccc(C#N)cc2)nc1Oc1c(C)cc(C#N)cc1C	MTT	MT-4	E138K	-	3.4
Cc1occc1C(=S)Nc1ccc(Cl)c(OCC=C(Cl)Cl)c1	syncytia	CEM	RT-V106A	Nevirapine-resistant isolate (RT V106A)	6.47
Cc1cc(S(N)(=O)=O)ccc1NC(=O)COc1ccccc1C(=O)c1cc(Cl)cc(C#N)c1	β-galactosidase	HeLa MAGI + HeLa	RT-K103N	-	2
Cc1cc(C)cc(S(=O)(=O)c2c(C(=O)NCCO)[nH]c3ccc(Cl)cc23)c1	cytopathic effect / MTT	MT-4	RT-K103N Y181C	-	500
CCOCn1c(Cc2ccccc2)c(C(C)C)c(=O)[nH]c1=O	cytopathic effect / MTT	MT-4	RT-K103N Y181C	NNRTI-resistant (RT K103N Y181C) A17	>500
O=C(Nc1ccc(Cl)c(C(=O)OC2CCCCC2)c1)c1ccccc1F	syncytia	CEM	RT-L100I	IIIB	16.7
CCOCn1c(Cc2cccc(Cc3[nH]c(=O)[nH]c(=O)c3CC)c2)c(CC)c(=O)[nH]c1=O	cytopathic effect / MTT	MT-4	RT-K103N Y181C	RT-K103N+Y181C NNRTI-resistant	>2.1
C/C(Cl)=C/COc1cc(NC(=O)c2ccoc2C)ccc1Cl	syncytia	CEM	RT-L100I	TIBO R82150-resistant (RT L100I)	15.6
CCOCn1c(Cc2ccccc2)c(C(C)C)c(=O)[nH]c1=O	syncytia	CEM	RT-Y188H	IIIB	8500
Cc1cc(C#N)cc(C)c1Oc1nc(Nc2ccc(C#N)cc2)ncc1SCC(=O)NC1CC1	MTT	MT-4	RES056	-	48.6
Cc1c(OCC2CCC2)c2cc(F)ccc2[nH]c1=O	β-galactosidase	HeLa + HeLa-MAGI	RT-K103N	NNRTI-resistant (RT K103N)	>3.28
CC(C)=CCOc1cc(NC(=S)c2ccoc2C)ccc1Cl	cytopathic effect / XTT	CEM + CEM-SS	RT-A98G	NL4-3 (RT A98G)	3.33
CCc1c(Sc2ccccc2)n(COCc2ccccc2)c(=S)[nH]c1=O	syncytia	CEM	RT-Y181I	IIIB	260
CC(C)[C@H](NC(=O)OCc1ccccn1)C(=O)N[C@@H](Cc1ccccc1)[C@@H](O)C[C@H](Cc1ccccc1)NC(=O)OCc1cccnc1	p24	MT-4	PR-L63P V82T	NL4-3	1.875
Cc1occc1C(=S)Nc1ccc(Cl)c(SCC=C(Cl)Cl)c1	syncytia	CEM	RT-L100I	TIBO R82150-resistant (RT L100I)	4.6
CCC1=C(C(=O)Nc2ccc(Cl)c(C(=O)OC(C)C)c2)SCCO1	syncytia	CEM	RT-Y181C	PYR-resistant (RT Y181C)	125
CC1=C(C(=O)Nc2ccc(Cl)c(C(=O)OC(C)C)c2)SCCO1	syncytia	CEM	RT-E138K	IIIB	>1500
CC1=C(C(=O)Nc2cc(C(=O)OC(C)C)c(F)cc2F)SCCO1	syncytia	CEM	RT-Y181C	PYR-resistant (RT Y181C)	>11.8
C=CCOCn1c(Cc2cccc(Cc3[nH]c(=O)[nH]c(=O)c3CC)c2)c(CC)c(=O)[nH]c1=O	cytopathic effect / MTT	MT-4	RT-K103N Y181C	RT-K103N+Y181C NNRTI-resistant	>9.1
CCSCC1=C(C(=O)Nc2ccc(Cl)c(C(=O)OC(C)C)c2)SCCO1	syncytia	CEM	RT-Y181C	PYR-resistant (RT Y181C)	>3.33
CCN1c2ncc(CCOc3ccc(-c4ccc(C)[n+]([O-])c4)cc3C)cc2C(=O)N(C)c2cccnc21	p24	C8166	RT-K103N Y181C	-	1
CCc1c(Sc2cc(C)cc(C)c2)n(COCc2ccccc2)c(=O)[nH]c1=O	syncytia	CEM	RT-K103N	IIIB TIBO R82913-resistant (RT K103N)	60
Cc1occc1C(=S)Nc1ccc(Cl)c(/C=N/OC(C)(C)C)c1	syncytia	CEM	RT-Y188H	IIIB	5
CCC(=O)c1ccc(F)c([C@@H]2C[C@@H]2NC(=O)Nc2ccc(C#N)cn2)c1O	β-galactosidase / luminescence	TZM-bl	NNRTI-resistant (RT K101E)	LAI	4.8
CC1=C(C(=O)Nc2ccc(C)c(C(=O)OC(C)C)c2)SCCO1	syncytia	CEM	RT-V106A	Nevirapine-resistant (RT V106A)	>22.2
O=C(O[C@@H]1[C@H](OC(=O)c2ccccc2)[C@@H](CO)O[C@H]1n1cnc2c(N(C(=O)c3ccccc3)C(=O)c3ccccc3)ncnc21)c1ccccc1	β-galactosidase	HeLaP4	K65R	NL4-3	0.92
CCN1c2ncc(CCOc3ccc(C(=O)Nc4cccnc4C)cc3C)cc2C(=O)N(C)c2cccnc21	p24	C8166	RT-K103N Y181C	-	1
Cc1ccc(C)c(C(Cl)S(=O)(=O)c2cc(C)cc[n+]2[O-])c1	cytopathic effect	CEM	RT-K103N	-	>8.3
C#CCNC(=O)CSc1cnc(Nc2ccc(C#N)cc2)nc1Oc1c(C)cc(C#N)cc1C	MTT	MT-4	Y188L	-	7.9

A second listing of 5 rows from above:

| structure | read by | cells | mutations | strain | value |
|---|---|---|---|---|---|
| Cc1cc(S(N)(=O)=O)ccc1NC(=O)COc1ccc(Cl)cc1C(=O)c1cc(F)cc(C(F)(F)F)c1 | β-galactosidase | HeLa + HELA CD4+ | RT-Y181C | HXB2 | ~1 |
| Cc1ccc(C)c(CS(=O)c2ccc(Cl)c[n+]2[O-])c1 | syncytia | CEM | RT-K103N | IIIB | 4.5 |
| CC(C)=CCOc1cc(NC(=S)c2ccsc2C)ccc1Cl | cytopathic effect / XTT | CEM + CEM-SS | RT-Y181C | NL4-3 (RT Y181C) | 5 |
| C[C@@H]1CCO[C@H]2Cn3cc(C(=O)NCc4ccc(F)cc4F)c(=O)c(O)c3C(=O)N12 | luciferase / luminescence | TZM-bl | I60M | - | 1 |
| CCC1=C(C(=O)Nc2ccc(Cl)c(C(=O)OC(C)C)c2)SCCO1 | syncytia | CEM | RT-Y181C | PYR-resistant (RT Y181C) | 125 |